These results are taken from paper PMC6270409, “Synthesis and Anti-Influenza Virus Activities of a Novel Class of Gastrodin Derivatives” (Molecules, 2013).

Read-outs that look alike come from different tables or passages of the source.

The subject of data set [1] is influenza A/FM/1/47(H1N1). It counts as cell-based, influenza A virus.
In data set [2] the test system is influenza A/Hanfang/359/95(H3N2). It counts as cell-based, influenza A virus.
Data set [3] deals with influenza B (B/Jifang/13/97). As to the kind of experiment: Anti-influenza CPE assay in MDCK cells, oseltamivir-null B/Jifang/13/97. It counts as cell-based, influenza B virus.

Take `COC(=O)c1c(F)cccc1O[C@@H]1O[C@H](COC(C)=O)[C@H](OC(C)=O)[C@H](OC(C)=O)[C@H]1OC(C)=O` [Compound 9b, Methyl 2-fluoro-6-((2S,3R,4S,5S,6R)-3,4,5-triacetoxy-6-(acetoxymethyl)-tetrahydro-2H-pyran-2-yloxy)benzoate]: in data set [1] (TC50/IC50), the “SI A/FM/1/47” value came out at 6.0. Turning to `CCOC(=O)C1=C[C@@H](OC(CC)CC)[C@H](NC(C)=O)[C@@H](N)C1` [Oseltamivir, reference compound], the “SI A/Hanfang/359/95” value in data set [2] (TC50/IC50) stood at 1938.5. Further, the “SI A/FM/1/47” value in data set [1] (TC50/IC50) was 70.1. On to `CC(=O)OC[C@H]1O[C@@H](Oc2ncccc2F)[C@H](OC(C)=O)[C@@H](OC(C)=O)[C@@H]1OC(C)=O` [Compound 12a, (2R,3R,4S,5R,6S)-2-(Acetoxymethyl)-6-(3-fluoropyridin-2-yloxy)-tetrahydro-2H-pyran-3,4,5-triyl triacetate], for which, in data set [1] (TC50/IC50), the “SI A/FM/1/47” value was found to be 13.9. Consider `COC(=O)c1ccc(O[C@@H]2O[C@H](COC(C)=O)[C@H](OC(C)=O)[C@H](OC(C)=O)[C@H]2OC(C)=O)c(F)c1` [Compound 7b, Methyl 3-fluoro-4-((2S,3R,4S,5S,6R)-3,4,5-triacetoxy-6-(acetoxymethyl)-tetrahydro-2H-pyran-2-yloxy)benzoate], for which the “SI A/FM/1/47” value in data set [1] (TC50/IC50) is recorded as above 3.0. In the case of `CC(=O)OC[C@H]1O[C@@H](Oc2cccc(F)c2C)[C@H](OC(C)=O)[C@@H](OC(C)=O)[C@H]1OC(C)=O` [Compound 10b, (2R,3S,4S,5R,6S)-2-(Acetoxymethyl)-6-(3-fluoro-2-methylphenoxy)-tetrahydro-2H-pyran-3,4,5-triyl triacetate], the “SI A/Hanfang/359/95” value in data set [2] (TC50/IC50) came to 5.2. Further, the “SI B/Jifang/13/97” value in data set [3] (TC50/IC50) is 6.80. `COC(=O)c1c(OC)cc(O[C@@H]2O[C@H](COC(C)=O)[C@@H](OC(C)=O)[C@H](OC(C)=O)[C@H]2OC(C)=O)cc1OC` [Compound 2a, Methyl 2,6-dimethoxy-4-((2S,3R,4S,5R,6R)-3,4,5-triacetoxy-6-(acetoxymethyl)-tetrahydro-2H-pyran-2-yloxy)benzoate]: in data set [1] (TC50/IC50), the “SI A/FM/1/47” value was determined as 2.0. Moreover, in data set [3] (TC50/IC50), the “SI B/Jifang/13/97” value stood at 3.94.

Take `COC(=O)c1ccc(F)c(O[C@@H]2O[C@H](COC(C)=O)[C@@H](OC(C)=O)[C@H](OC(C)=O)[C@H]2OC(C)=O)c1` [Compound 1a, Methyl 4-fluoro-3-((2S,3R,4S,5R,6R)-3,4,5-triacetoxy-6-(acetoxymethyl)-tetrahydro-2H-pyran-2-yloxy)benzoate]: in data set [2], the “SI A/Hanfang/359/95” value stood at 4.3. The “SI A/FM/1/47” value in data set [1] is 5.6. Also, in data set [3], the “SI B/Jifang/13/97” value turned out to be 6.14. As for `CC(=O)OC[C@H]1O[C@@H](Oc2ccncc2)[C@H](OC(C)=O)[C@@H](OC(C)=O)[C@@H]1OC(C)=O` [Compound 11a, (2R,3R,4S,5R,6S)-2-(Acetoxymethyl)-6-(pyridin-4-yloxy)-tetrahydro-2H-pyran-3,4,5-triyl triacetate], the “SI A/Hanfang/359/95” value in data set [2] (TC50/IC50) was 5.6. In addition, in data set [1] (TC50/IC50), the “SI A/FM/1/47” value is listed as 4.3. For “Methyl 4-((2S,3R,4S,5R,6R)-3,4,5-triacetoxy-6-(acetoxymethyl)-tetrahydro-2H-pyran-2-yloxy)benzoate [Compound 5a]”, the “SI A/Hanfang/359/95” value in data set [2] (TC50/IC50) amounted to 2.5. For the compound `COC(=O)c1ccc(N)c(O[C@@H]2O[C@H](COC(C)=O)[C@@H](OC(C)=O)[C@H](OC(C)=O)[C@H]2OC(C)=O)c1` [Compound 4a, Methyl 4-amino-3-((2S,3R,4S,5R,6R)-3,4,5-triacetoxy-6-(acetoxymethyl)-tetrahydro-2H-pyran-2-yloxy)benzoate], in data set [1] (TC50/IC50), the “SI A/FM/1/47” value is on record as above 3.4. On to “Ethyl 4-fluoro-2-((2S,3R,4S,5R,6R)-3,4,5-triacetoxy-6-(acetoxymethyl)-tetrahydro-2H-pyran-2-yloxy)-benzoate [Compound 8a]”, for which the “SI A/Hanfang/359/95” value in data set [2] (TC50/IC50) is 6.2. The “SI A/FM/1/47” value in data set [1] (TC50/IC50) is 3.3.

For `COC(=O)c1c(F)cccc1O[C@@H]1O[C@H](COC(C)=O)[C@@H](OC(C)=O)[C@H](OC(C)=O)[C@H]1OC(C)=O` [Compound 9a, Methyl 2-fluoro-6-((2S,3R,4S,5R,6R)-3,4,5-triacetoxy-6-(acetoxymethyl)-tetrahydro-2H-pyran-2-yloxy)benzoate], in data set [1] (TC50/IC50), the “SI A/FM/1/47” value was above 11.6.
